Results of unrelated studies side by side (data: NIAID ChemDB).

All rows: tests on isolated targets

ICn: concentration for n% inhibition. Neighbouring rows are from separate reports. Percent inhibition refers to the dose given; in toxicity tests it is the harm to the cells. An empty or dashed field is not shown. Fold resistance has wild type as its base.

compound,endpoint,changes,dose,method,protein,result
O=C(/C=C/c1ncc(F)cc1F)/C=C/c1ncc(F)cc1F,IC50,-,-,-,Nuclear factor-kappa B,0.78 µM
COc1cc(C)cc2c(-c3c(O)cc(O)c4c3C[C@H](C)N[C@H]4C)cc(-c3cc(-c4c(O)cc(O)c5c4C[C@H](C)N[C@H]5C)c4cc(C)cc(OC)c4c3O)c(O)c12,IC50,-,-,-,Protein kinase C,130 µM
CCC(O)[NH+]1CC[NH+](C(O)CC)CC1.[Cl][Pt-2]([Cl])([Cl])([Cl])([Cl])[Cl],IC50,-,-,-,VP40:TSG101,50 µM
Nc1nccc2c1ncn2[C@@H]1O[C@H](CO)[C@@H](O)[C@H]1O,Ki,-,-,radiometric,S-adenosylhomocysteine hydrolase,3.9 µM
Cn1cc(C(=O)O)c(=O)c2cc(N)c(N3CCN(c4ccccn4)CC3)cc21,IC50,-,-,fluorescence,Tat:TAR/LTR,710 µM
NC(=O)C1=CN([C@@H]2O[C@H](COP(=O)(O)OP(=O)(O)OC[C@H]3O[C@@H](n4cnc5c(N)ncnc54)[C@H](O)[C@@H]3O)[C@@H](O)[C@H]2O)C=C[C@@H]1C(=O)c1ccccc1,Ki,-,-,-,InhA,<0.001 µM
CCCCCCCC1C[C@@H]2CCc3c(C(=O)OCCCCCCC[C@@H]4C[C@@H]5CC[C@H]6C[C@@H](C)N(O)C(=N4)N56)c(C)nc([n+]32)N1,IC50,-,-,-,CD4,7.1 µM
O=C(/C=C/c1cc(Br)ccn1)/C=C/c1cc(Br)ccn1,IC50,-,-,-,Nuclear factor-kappa B,2.71 µM
COc1cc(/C=C2\C(=O)N(c3ccccc3)N=C2c2ccccc2)cc(Br)c1OCC(N)=O,IC50,-,-,absorbance,Cyclophilin A,6.98 µM
O=C(O)c1cc(O)c(O)c(O)c1,inhibition,-,20 µg/mL,flow cytometry,CD4,32%
CC(C)[C@H](NC(=O)[C@H](Cc1ccccc1)C[C@H](O)[C@H](Cc1ccccc1)NC(=O)OC(C)(C)C)C(=O)N[C@@H](Cc1ccccc1)C(=O)N1CCOCC1,IC50,-,-,-,Cathepsin D,0.004 µM
O=c1[nH]c2ccccc2c(-c2ccccc2)c1O,IC50,-,-,-,Tat:TAR/LTR,>100 µM
c1ccc(CNCc2ccc(CN3CCNCCNCCc4cccc(n4)CC3)cc2)nc1,IC50,-,-,calcium flux,CXCR4,<1 µg/mL
O=C(O)CCc1ccc(O)c(O)c1,inhibition,-,100 µg/mL,flow cytometry,CD4,0%
Nc1nccc2c1ncn2[C@H]1CC[C@@H](CO)C1,Ki,-,-,radiometric,S-adenosylhomocysteine hydrolase,50.5 µM
Cn1c2ccccc2c(=O)c2c(O)cccc21,inhibition,-,20 µg/mL,nucleotide incorporation,Protein kinase C,63.2%
COc1ccc(CCNC(=O)c2ccc(C(=O)NCCc3ccc(OC)c(OC)c3)nc2)cc1OC,IC50,-,-,absorbance,Cyclophilin A,43.75 µM
C=C1CN(S(=O)(=O)c2ccc(C)cc2)CCCN(Cc2cccnc2)CCCN(S(=O)(=O)c2ccc(C)cc2)C1,IC50,-,-,-,CD4,4.83 µM
C#Cc1cccnc1/C=C/C(=O)/C=C/c1ncccc1C#C,IC50,-,-,-,Nuclear factor-kappa B,1.2 µM
O=S(=O)(c1cccc2cnccc12)N1CCNCC1,inhibition,-,0.16 µg/mL,nucleotide incorporation,Protein kinase C,23.8%
CCCCCCCCC[C@H]1CC2CCC3C(C(=O)OCCCCCCCCCC4N=C(N)N5CCCC5=C4C(=O)OCCCCN=C(N)N)[C@@H](C)N=C(N1)N23,IC50,-,-,-,Protein kinase C,1.4 µM
O=C(/C=C/c1ncccc1Br)/C=C/c1ncccc1Br,IC50,-,-,-,Nuclear factor-kappa B,5.02 µM
C[C@H](NC(=O)[C@H](CCCSC(=N)N)NC(=O)c1ccc(CNCc2ccccn2)cc1)c1cccc2ccccc12,IC50,-,-,radiometric,CXCR4,<0.1 µM
CN(C)CCCN1c2cc(O)c(O)cc2Sc2cc(O)c(Cl)cc21,IC50,-,-,-,gp120,>200 µg/mL
O=C(O)Cc1cc(O)ccc1O,IC50,-,-,flow cytometry,CD4,2 µM
C=Cc1cccnc1/C=C/C(=O)/C=C/c1ncccc1C=C,IC50,-,-,-,Nuclear factor-kappa B,0.69 µM
c1ccc(CNCc2ccc(CN3CCNCCCCCCCNCC3)cc2)nc1,IC50,-,-,calcium flux,CXCR4,<1 µg/mL
c1ccc2c(NCc3ccc(CN4CCCNCCNCCCNCC4)cc3)cccc2c1,inhibition,-,10 µM,fluorescence,CCR5,86%
C=CCN(C(=O)OCc1ccccc1)C1CCN(CCC(C)(c2ccccc2)C2Nc3ccccc3S(=O)(=O)N2)CC1,IC50,-,-,-,CCR3,>1 µM
C=C1CN(S(=O)(=O)c2ccc(C)cc2)CCCN(C(C)C)CCCN(S(=O)(=O)c2ccc(C)cc2)C1,IC50,-,-,-,CD4,11 µM
Clc1cc(CN2CCCNCCNCCCNCC2)cc(Cl)n1,fold resistance,CXCR4-D262N,-,-,CXCR4,1.36
O=C(C(=O)N1CCN(C(=O)c2ccccc2)CC1)c1c[nH]c2ccccc12,IC50,-,-,radiometric,gp120,~60 µM
CCCN(CCC)CCC[C@H](NC(=O)c1ccc(CNCc2ncc[nH]2)cc1)C(=O)N[C@@H](C)c1cccc2ccccc12,IC50,-,-,radiometric,CXCR4,<0.1 µM
O=C(O[C@H]1Cc2c(O)cc(O)cc2O[C@@H]1c1cc(O)c(O)c(O)c1)c1cc(O)c(O)c(O)c1,IC50,-,-,ELISA,CXCR4,>20 µM
c1ccc(CNCc2ccc(CN3CCNCCc4cccc(n4)CCNCC3)cc2)nc1,IC50,-,-,calcium flux,CXCR4,<1 µg/mL
CC(C)CN(CCO)CCC[C@H](NC(=O)c1ccc(CNCc2ncc[nH]2)cc1)C(=O)N[C@@H](C)c1cccc2ccccc12,IC50,-,-,radiometric,CXCR4,<0.1 µM
CC[C@H](C)[C@H](N)C(=O)N[C@@H](CC(N)=O)C(=O)N[C@@H](CC(N)=O)C(=O)N[C@H](C(=O)N1CCC[C@H]1C(=O)N[C@@H](Cc1c[nH]c2ccccc12)C(=O)N[C@@H](CO)C(=O)O)[C@@H](C)CC,IC50,-,-,ELISA,gp120,>200 µM
c1cc2c(c(NCc3ccc(CN4CCCNCCNCCCNCC4)cc3)c1)CCCC2,IC50,-,-,fluorescence,CCR5,<10 µM
C=C1CN(S(=O)(=O)c2ccc(C)cc2)CCCN(Cc2ccccn2)CCCN(S(=O)(=O)c2ccc(C)cc2)C1,IC50,-,-,-,CD4,76.2 µM
CC(C)C[C@H](NC(=O)C(NC(=O)[C@@H](N)C(C)C)c1cc(O)cc(O)c1)C(=O)N[C@H](Cc1ccccc1)C(=O)C(=O)N[C@H](C(=O)N[C@H](C(=O)N[C@@H](CC(=O)O)C(=O)O)C(C)C)C(C)C,IC50,-,-,-,Cathepsin D,8.6 µM
Nc1ncnc2c1ncn2[C@H]1CC[C@@H](CO)O1,Ki,-,-,radiometric,S-adenosylhomocysteine hydrolase,28 µM
COc1ccc2c(Cc3c4ccccc4cc4ccccc34)cncc2c1O,IC50,-,-,-,VP40:TSG101,11.9 µM
CCCCCCC[C@H]1CC2CCC3C(C(=O)OCCCCCCCCCC4N=C(N)N5CCCC5=C4C(=O)OCCCCN=C(N)N)=C(C)NC(=N1)N23,IC50,-,-,-,Protein kinase C,1.5 µM
O=C(CCCCC(=O)Nc1sc2c(c1C(=O)O)CCCC2)Nc1sc2c(c1C(=O)O)CCCC2,IC50,-,-,absorbance,Cyclophilin A,70.2 µM
O=C(O)/C=C/c1ccc(O)c(O)c1,inhibition,-,20 µg/mL,flow cytometry,CD4,58%
C=C1CN(S(=O)(=O)c2ccc(C)cc2)CCCN(Cc2ccncc2)CCCN(S(=O)(=O)c2ccc(C)cc2)C1,IC50,-,-,-,CD4,4.7 µM
O=C(/C=C/c1ncccc1N1CCOCC1)/C=C/c1ncccc1N1CCOCC1,IC50,-,-,-,Nuclear factor-kappa B,0.56 µM
O=C(O[C@@H]1Cc2c(O)cc(O)cc2O[C@@H]1c1cc(O)c(O)c(O)c1)c1cc(O)c(O)c(O)c1,inhibition,-,20 µM,ELISA,CXCR4,7%
COc1c(-c2ccccc2)c2ccccc2n(C)c1=O,IC50,-,-,-,Tat:TAR/LTR,>100 µM
C=C1CN(S(=O)(=O)c2ccc(C)cc2)CCCN(C(C)=O)CCCN(S(=O)(=O)c2ccc(C)cc2)C1,IC50,-,-,-,CD4,18.7 µM
Cn1c2ccccc2c(=O)c2c(O)cccc21,inhibition,-,20 µg/mL,nucleotide incorporation,Protein kinase C,63.2%
O=C1C=CC(=C(c2ccc(O)cc2)c2ccc(O)cc2)C=C1,IC50,-,-,flow cytometry,CD4,>20 µM
COc1cccc(/C=C/C(=O)/C=C/c2cccc(OC)n2)n1,IC50,-,-,-,Nuclear factor-kappa B,4.68 µM
C=C1CN(S(C)(=O)=O)CCCN(Cc2ccccc2)CCCN(S(C)(=O)=O)C1,IC50,-,-,-,CD4,107 µM
O=S(=O)(c1cccc2cnccc12)N1CCNCC1,inhibition,-,0.16 µg/mL,nucleotide incorporation,Protein kinase C,23.8%
CCCCCCCCCC1C[C@@H]2CC[C@H]3[C@@H](C(=O)OC(C)CCCCCCC[C@@H]4C[C@@H]5CC[C@H]6C[C@@H](C)N(O)C(=N4)N56)[C@@H](C)N=C(N1)N23,IC50,-,-,-,CD4,24 µM
C/C(CC(=O)Nc1ccc(C(N)=O)cc1)=N\NC(=O)COc1ccc2ccccc2c1,IC50,-,-,absorbance,Cyclophilin A,72.8 µM
O=C(c1ccccc1)N1C[C@@H](CN2CCC(c3ccccc3)CC2)[C@H](c2ccccc2)C1,IC50,-,-,-,CCR3,0.71 µM
O=C1c2ccccc2-[n+]2ccc3c([nH]c4ccccc43)c21,IC50,-,-,ELISA,p56lck tyrosine kinase,<700 µM

A second listing of 8 rows from above:

C=CCN(C(=O)OCc1ccccc1)C1CCN(CCC(C)(c2ccccc2)C2Nc3ccccc3S(=O)(=O)N2)CC1 ; endpoint: IC50 ; protein: CCR3 ; result: >1 µM
C=C1CN(S(=O)(=O)c2ccc(C)cc2)CCCN(C(C)C)CCCN(S(=O)(=O)c2ccc(C)cc2)C1 ; endpoint: IC50 ; protein: CD4 ; result: 11 µM
CC(C)C[C@H](NC(=O)C(NC(=O)[C@@H](N)C(C)C)c1cc(O)cc(O)c1)C(=O)N[C@H](Cc1ccccc1)C(=O)C(=O)N[C@H](C(=O)N[C@H](C(=O)N[C@@H](CC(=O)O)C(=O)O)C(C)C)C(C)C ; endpoint: IC50 ; protein: Cathepsin D ; result: 8.6 µM
c1cc2c(c(NCc3ccc(CN4CCCNCCNCCCNCC4)cc3)c1)CCCC2 ; endpoint: IC50 ; method: fluorescence ; protein: CCR5 ; result: <10 µM
O=C1C=CC(=C(c2ccc(O)cc2)c2ccc(O)cc2)C=C1 ; endpoint: IC50 ; method: flow cytometry ; protein: CD4 ; result: >20 µM
Cn1c2ccccc2c(=O)c2c(O)cccc21 ; endpoint: inhibition ; dose: 20 µg/mL ; method: nucleotide incorporation ; protein: Protein kinase C ; result: 63.2%
O=C(O[C@@H]1Cc2c(O)cc(O)cc2O[C@@H]1c1cc(O)c(O)c(O)c1)c1cc(O)c(O)c(O)c1 ; endpoint: inhibition ; dose: 20 µM ; method: ELISA ; protein: CXCR4 ; result: 7%
O=C(/C=C/c1cc(Br)ccn1)/C=C/c1cc(Br)ccn1 ; endpoint: IC50 ; protein: Nuclear factor-kappa B ; result: 2.71 µM